Measured values from several laboratories, pooled; numbers as filed in NIAID ChemDB.

Shared fields: tests in culture; organism: Mycobacterium avium complex; read-out: MIC

Rows are shuffled and stem from different studies. Blank or dashed fields: not listed here.

smiles,strain or isolate,read by,value
CN1CC2CCC1CN2c1c(F)cc2c(=O)c(C(=O)O)cn(C3CC3)c2c1F,1915112,,4 µg/mL
NCC[C@H](O)C(=O)N[C@@H]1C[C@H](N)[C@@H](O[C@H]2O[C@H](CN)[C@@H](O)[C@H](O)[C@H]2O)[C@H](O)[C@H]1O[C@H]1O[C@H](CO)[C@@H](O)[C@H](N)[C@H]1O,TMC 1411,,0.19 µg/mL
CO[C@H]1/C=C/O[C@@]2(C)Oc3c(C)c(O)c4c(O)c(c(/C=N/N5CCN(C/C=C/c6ccccc6)CC5)c(O)c4c3C2=O)NC(=O)/C(C)=C\C=C\[C@H](C)[C@H](O)[C@@H](C)[C@@H](O)[C@@H](C)[C@H](OC(C)=O)[C@@H]1C,LR-25,,≤0.015 µg/mL
NCC[C@H](O)C(=O)N[C@@H]1C[C@H](N)[C@@H](O[C@H]2O[C@H](CN)[C@@H](O)[C@H](O)[C@H]2O)[C@H](O)[C@H]1O[C@H]1O[C@H](CO)[C@@H](O)[C@H](N)[C@H]1O,827/HIV+,,4 µg/mL
NCCC(O)C(N)CC(=O)NC1CNC(=O)C(C2CCN=C(N)N2)NC(=O)/C(=C/NC(N)=O)NC(=O)C(CO)NC(=O)C(CO)NC1=O,Isolate 64,,50 µg/mL
CC1COc2c(N3CCN(C)CC3)c(F)cc3c(=O)c(C(=O)O)cn1c23,CIPT 140310031,,20 µg/mL
CO[C@H]1/C=C/O[C@@]2(C)Oc3c(C)c(O)c4c(O)c(c(/C=N/N5CCN(C)CC5)c(O)c4c3C2=O)NC(=O)/C(C)=C\C=C\[C@H](C)[C@H](O)[C@@H](C)[C@@H](O)[C@@H](C)[C@H](OC(C)=O)[C@@H]1C,1008,,16 µg/mL
CC[C@@H](CO)NCCN[C@@H](CC)CO,3213,,32 µg/mL
O=C(O)c1cn(C2CC2)c2c(F)c(N3CCC(n4ccnc4)C3)c(F)cc2c1=O,1988557,,8 µg/mL
NCCC(O)C(N)CC(=O)NC1CNC(=O)C(C2CCN=C(N)N2)NC(=O)/C(=C/NC(N)=O)NC(=O)C(CO)NC(=O)C(CO)NC1=O,13887 (serotype 14),,1.6 µg/mL
CO[C@H]1/C=C/O[C@@]2(C)Oc3c(C)c(O)c4c(O)c(c(/C=N/N5CCN(C)CC5)c(O)c4c3C2=O)NC(=O)/C(C)=C\C=C\[C@H](C)[C@H](O)[C@@H](C)[C@@H](O)[C@@H](C)[C@H](OC(C)=O)[C@@H]1C,3212,,1 µg/mL
NCC[C@H](O)C(=O)N[C@@H]1C[C@H](N)[C@@H](O[C@H]2O[C@H](CN)[C@@H](O)[C@H](O)[C@H]2O)[C@H](O)[C@H]1O[C@H]1O[C@H](CO)[C@@H](O)[C@H](N)[C@H]1O,LR25/HIV+,,<0.61 µg/mL
CCN(CC)CC1CCN(c2c(F)cc3c(=O)c(C(=O)O)cn(C4CC4)c3c2F)C1,1915112,,2 µg/mL
CC[C@@H](CO)NCCN[C@@H](CC)CO,1069,,8 µg/mL
CC[C@H]1OC(=O)[C@H](C)[C@@H](O[C@H]2C[C@@](C)(OC)[C@@H](O)[C@H](C)O2)[C@H](C)[C@@H](O[C@@H]2O[C@H](C)C[C@H](N(C)C)[C@H]2O)[C@](C)(O)C[C@@H](C)C(=O)[C@H](C)[C@@H](O)[C@]1(C)O,3219,,32 µg/mL
CC[C@@H](CO)NCCN[C@@H](CC)CO,N-316 (HIV-),,1 µg/mL
CC(C)N=c1cc2n(-c3ccc(Cl)cc3)c3ccccc3nc-2cc1Nc1ccc(Cl)cc1,1257/HIV-,,0.5 µg/mL
CO[C@H]1/C=C/O[C@@]2(C)Oc3c(C)c(O)c4c(O)c(c5c(c4c3C2=O)NC2(CCN(CC(C)C)CC2)N=5)=NC(=O)/C(C)=C\C=C\[C@H](C)[C@H](O)[C@@H](C)[C@@H](O)[C@@H](C)[C@H](OC(C)=O)[C@@H]1C,3010-4,,0.25 µg/mL
CC(C)N=c1cc2n(-c3ccc(Cl)cc3)c3ccccc3nc-2cc1Nc1ccc(Cl)cc1,CH-5/HIV+,,0.25 µg/mL
CN[C@@H]1[C@H](O[C@H]2[C@H](O[C@H]3[C@H](O)[C@@H](O)[C@H](N=C(N)N)[C@@H](O)[C@@H]3N=C(N)N)O[C@@H](C)[C@]2(O)C=O)O[C@@H](CO)[C@H](O)[C@H]1O,Isolate C-28,,400 µg/mL
O=C(O)c1cn(C2CC2)c2c(F)c(N3CCC(N4CCCC4)C3)c(F)cc2c1=O,1988557,,1 µg/mL
NC[C@@H]1O[C@H](O[C@H]2[C@@H](O)[C@H](O[C@@H]3[C@@H](O)[C@H](N)C[C@H](N)[C@H]3O[C@H]3O[C@H](CO)[C@@H](O)C[C@H]3N)O[C@@H]2CO)[C@H](N)[C@@H](O)[C@@H]1O[C@H]1O[C@H](CO)[C@@H](O)[C@H](O)[C@@H]1O,TMC 1467,,0.01 µg/mL
O=C(O)c1cn(C2CC2)c2c(F)c(N3CC4CC3CN4)c(F)cc2c1=O,1988557,,2 µg/mL
CO[C@H]1/C=C/O[C@@]2(C)Oc3c(C)c(O)c4c(O)c(c(/C=N/N5CCN(C)CC5)c(O)c4c3C2=O)NC(=O)/C(C)=C\C=C\[C@H](C)[C@H](O)[C@@H](C)[C@@H](O)[C@@H](C)[C@H](OC(C)=O)[C@@H]1C,13011 (serotype 16),,0.4 µg/mL
CCn1cc(C(=O)O)c(=O)c2cc(F)c(N3CCNCC3)nc21,CIPT 140310031,,20 µg/mL
NC[C@H]1O[C@H](O[C@H]2[C@H](O)[C@@H](O[C@H]3O[C@H](CO)[C@@H](O)[C@H](N)[C@H]3O)[C@H](N)C[C@@H]2N)[C@H](O)[C@@H](O)[C@@H]1O,N-945 (HIV+),,4 µg/mL
NC[C@H]1O[C@H](O[C@H]2[C@H](O[C@@H]3O[C@H](CO)[C@@H](O)[C@H]3O)[C@@H](O)[C@H](N)C[C@@H]2N)[C@H](N)[C@@H](O)[C@@H]1O,TMC 1403,,0.1 µg/mL
C[C@@H]1CN(c2c(F)c(N)c3c(=O)c(C(=O)O)cn(C4CC4)c3c2F)C[C@H](C)N1,5,broth dilution,1 µg/mL
NCC1(O)CCN(c2c(F)cc3c(=O)c(C(=O)O)cn(N4CC4)c3c2F)C1,PI12/39,,32 µg/mL

The last 2 rows once more:

smiles | strain or isolate | read by | value
C[C@@H]1CN(c2c(F)c(N)c3c(=O)c(C(=O)O)cn(C4CC4)c3c2F)C[C@H](C)N1 | 5 | broth dilution | 1 µg/mL
NCC1(O)CCN(c2c(F)cc3c(=O)c(C(=O)O)cn(N4CC4)c3c2F)C1 | PI12/39 |  | 32 µg/mL